Type in all cases: cell-based, Dengue virus
One data set concerns DENV-2 strain 16681. Kind of data set: Tetravalent RT-qPCR assay, serotype 2. The following applies: RT-qPCR serotype 2 16681, Protocol A. The method, then: (§1) The antiviral activity of the compounds of the invention was tested against DENV-1 strain TC974 #666 (NCPV), DENV-2 strain 16681, DENV-3 strain H87 (NCPV) and DENV-4 strain H241 (NCPV) in a RT-qPCR assay. Therefore, Vero cells were infected with either DENV-1, or -2, or -3, or -4 in the presence or absence of test compounds. At day 3 post-infection, the cells were lysed and cell lysates were used to prepare cDNA of both a viral target (the 3′UTR of DENV; Table 2) and cellular reference gene (β-actin, Table 2). Subsequently, a duplex real time PCR was performed on a Lightcycler480 instrument. The generated Cp value is inversely proportional to the amount of RNA expression of these targets. Inhibition of DENV replication by a test compound results in a shift of Cp's for the 3′UTR gene. On the other hand, if a test compound is toxic to the cells, a similar effect on β-actin expression will be observed. The comparative ΔΔCp method is used to calculate EC50, which is based on the relative gene expression of the target gene (3′UTR) normalized with the cellular housekeeping gene (β-actin). In addition, CC50 values are determined based on the Cp values acquired for the housekeeping gene β-actin.
(§2) The culture medium consisted of minimal essential medium supplemented with 2% of heat-inactivated fetal calf serum, 0.04% gentamycin (50 mg/mL) and 2 mM of L-glutamine. Vero cells, obtained from ECACC, were suspended in culture medium and 75 μL/well was added in 96-well plates (10000 cells/well), which already contain the antiviral compounds. […] In addition, each plate contains wells which are assigned as virus controls (containing cells and virus in the absence of compound) and cell controls (containing cells in the absence of virus and compound). Once the cells were added in the plates, the plates were incubated in a fully humidified incubator (37° C., 5% CO2) until the next day. Dengue viruses serotype-1, 2, 3 and 4 were diluted in order to obtain a Cp of ˜22-24 in the assay. Therefore, 25 μL of virus suspension was added to all the wells containing test compound and to the wells assigned as virus control. In parallel, 25 μL of culture medium was added to the cell controls. Next, the plates were incubated for 3 days in a fully humidified incubator (37° C., 5% CO2). After 3 days, the supernatant was removed from the wells and the cells were washed twice with ice-cold PBS (˜100 μL). The cell pellets within the 96-well plates were stored at −80° C. for at least 1 day. Next, RNA was extracted using the Cells-to-CT™ lysis kit, according to the manufacturer's guideline (Life Technologies). The cell lysates can be stored at −80° C. or immediately used in the reverse transcription step.
(§3) In preparation of the reverse transcription step, mix A (table 3A) was prepared and 7.57 μL/well was dispensed in a 96-well plate. After addition of 5 μL of the cell lysates, a five minute denaturation step at 75° C. was performed (table 3B). Afterwards, 7.43 μL of mix B was added (table 3C) and the reverse transcription step was initiated (table 3D) to generate cDNA.
(§4) Finally, a RT-qPCR mix was prepared, mix C (table 4A), and 22.02 μL/well was dispensed in 96-well LightCycler qPCR plates to which 3 μL of cDNA was added and the qPCR was performed according to the conditions in table 4B on a LightCycler 480.
(§5) Using the LightCycler software and an in-house LIMS system, dose response curves for each compound were calculated and the half maximal effective concentration (EC50) and the half maximal cytotoxic concentration (CC50) were determined (Tables 5-8).
(Real-time PCR tracks product formation cycle by cycle.)

In a further data set the test system is DENV-1 strain TC974 #666. The data set can be described thus: Tetravalent RT-qPCR assay, serotype 1. The following applies: RT-qPCR serotype 1 TC974#666, Protocol A. The procedure: as §1, §2, §3, §4, §5
A further data set deals with DENV-3 strain H87. The data set can be described thus: Tetravalent RT-qPCR assay, serotype 3. The following applies: RT-qPCR serotype 3 H87, Protocol A. The method, then:
as §1, §2, §3, §4, §5

The test system of a further data set is DENV-4 strain H241. The data set can be described thus: Tetravalent RT-qPCR assay, serotype 4. The following applies: RT-qPCR serotype 4 H241, Protocol A; ratio CC50 / EC50. The procedure:
as §1, §2, §3, §4, §5

A further data set has as its system DENV-2 16681 strain. Kind of data set: DENV-2 antiviral assay (eGFP-labeled virus in Vero cells). The following applies: SI=CC50/EC50, DENV-2 antiviral assay. The procedure: The antiviral activity of all the compounds of the invention was tested against the DENV-2 16681 strain which was labeled with enhanced green fluorescent protein (eGPF). The culture medium consists of minimal essential medium supplemented with 2% of heat-inactivated fetal calf serum, 0.04% gentamycin (50 mg/mL) and 2 mM of L-glutamine. Vero cells, obtained from ECACC, were suspended in culture medium and 25 μL was added to 384-well plates (2500 cells/well), which already contain the antiviral compounds. Typically, these plates contain a 5-fold serial dilution of 9 dilution steps of the test compound at 200 times the final concentration in 100% DMSO (200 nL). […] Finally, each plate contains wells which are assigned as virus controls (containing cells and virus in the absence of compound), cell controls (containing cells in the absence of virus and compound) and medium controls (containing medium in the absence of cells, virus and compounds). To the wells assigned as medium control, 25 μL of culture medium was added instead of Vero cells. Once the cells were added to the plates, the plates were incubated for 30 minutes at room temperature to allow the cells to distribute evenly within the wells. Next, the plates were incubated in a fully humidified incubator (37° C., 5% CO2) until the next day. Then, DENV-2 strain 16681, labeled with eGFP, was added at a multiplicity of infection (MOI) of 0.5. Therefore, 15 μL of virus suspension was added to all the wells containing test compound and to the wells assigned as virus control. In parallel, 15 μL of culture medium was added to the medium and cell controls. Next, the plates were incubated for 3 days in a fully humidified incubator (37° C., 5% CO2). At the day of the read out, the eGFP fluorescence was measured using an automated fluorescence microscope at 488 nm (blue laser). Using an in-house LIMS system, inhibition dose response curves for each compound were calculated and the half maximal effective concentration (EC50) was determined. Therefore, the percent inhibition (I) for every test concentration is calculated using the following formula: I=100*([…])/(SVC−SCC); ST, SCC and SVC are the amount of eGFP signal in the test compound, cell control and virus control wells, respectively. The EC50 represents the concentration of a compound at which the virus replication is inhibited with 50%, as measured by a 50% reduction of the eGFP fluorescent intensity compared to the virus control. The EC50 is calculated using linear interpolation (Table 1).

Turning to `COc1cc(NC(C(=O)c2c[nH]c3c(C)cc(C(F)(F)F)cc23)c2ccc(F)cc2OC)cc(OCCO)c1` (single isomer, unassigned) [Compound 4B, 2-(4-fluoro-2-methoxyphenyl)-2-((3-(2-hydroxyethoxy)-5-methoxyphenyl)amino)-1-(7-methyl-5-(trifluoromethyl)-1H-indol-3-yl)ethanone], the SI in the data set on DENV-2 strain 16681 is recorded as 14000; in the data set on DENV-1 strain TC974 #666, more than 3960; in the data set with DENV-3 strain H87, more than 317; in the data set on DENV-4 strain H241, more than 41; in the data set on DENV-2 16681 strain, 7070.
Turning to `COc1cc(NC(C(=O)c2c[nH]c3ccc(OC(F)(F)F)cc23)c2ccc(Cl)cc2OC)cc(OCCO)c1` (single isomer, unassigned) [Compound 13A, 2-(4-chloro-2-methoxyphenyl)-2-((3-(2-hydroxyethoxy)-5-methoxyphenyl)amino)-1-(5-(trifluoromethoxy)-1H-indol-3-yl)ethanone], the SI in the data set on DENV-2 strain 16681 is 19700; in the data set with DENV-1 strain TC974 #666, 1940; in the data set with DENV-3 strain H87, more than 1010; with DENV-4 strain H241 it was more than 121; in the data set on DENV-2 16681 strain, 23000.
Consider `COc1cc(NC(C(=O)c2c[nH]c3cc(F)c(OC(F)(F)F)cc23)c2ccc(F)cc2OC)cc(OCCO)c1` (single isomer, unassigned) [Compound 7B, 2-(4-fluoro-2-methoxyphenyl)-1-(6-fluoro-5-(trifluoromethoxy)-1H-indol-3-yl)-2-((3-(2-hydroxyethoxy)-5-methoxyphenyl)amino)ethanone], for which the SI is more than 8710 with DENV-2 strain 16681; more than 5240 in the data set with DENV-1 strain TC974 #666; more than 460 in the data set with DENV-3 strain H87; 40 in the data set with DENV-4 strain H241; 4580 in the data set with DENV-2 16681 strain.
Regarding `COc1cc(NC(C(=O)c2c[nH]c3ccc(C(F)(F)F)cc23)c2ccc(Cl)cc2OC)cc(OCCO)c1` (single isomer, unassigned) [Compound 9B, 2-(4-chloro-2-methoxyphenyl)-2-((3-(2-hydroxyethoxy)-5-methoxyphenyl)amino)-1-(5-(trifluoromethyl)-1H-indol-3-yl)ethanone], the SI was more than 13300 in the data set on DENV-2 strain 16681; more than 3440 with DENV-1 strain TC974 #666; 456 in the data set on DENV-3 strain H87; 62 in the data set on DENV-4 strain H241; more than 20100 in the data set with DENV-2 16681 strain.
As to `COc1cc(NC(C(=O)c2c[nH]c3ccc(C(F)(F)F)cc23)c2ccc(F)cc2OC)cc(OCCO)c1` (single isomer, unassigned) [Compound 1B, 2-(4-fluoro-2-methoxyphenyl)-2-((3-(2-hydroxyethoxy)-5-methoxyphenyl)amino)-1-(5-(trifluoromethyl)-1H-indol-3-yl)ethanone], the SI with DENV-2 strain 16681 is recorded as 7070; in the data set on DENV-1 strain TC974 #666 it was 2360; with DENV-3 strain H87, 241; with DENV-4 strain H241, 48; in the data set on DENV-2 16681 strain, 4840.
The like results for `COc1cc(NC(C(=O)c2c[nH]c3cc(OC)c(OC(F)(F)F)cc23)c2ccc(F)cc2OC)cc(OCCO)c1` (single isomer, unassigned) [Compound 6A, 2-(4-fluoro-2-methoxyphenyl)-2-((3-(2-hydroxyethoxy)-5-methoxyphenyl)amino)-1-(6-methoxy-5-(trifluoromethoxy)-1H-indol-3-yl)ethanone] were, in that order, 6430, 910, more than 312, 19 and more than 7560.
On to `COc1cc(NC(C(=O)c2c[nH]c3c(C)cc(OC(F)(F)F)cc23)c2ccc(Cl)cc2OC)cc(OCCO)c1` (single isomer, unassigned) [Compound 16A, 2-(4-chloro-2-methoxyphenyl)-2-((3-(2-hydroxyethoxy)-5-methoxyphenyl)amino)-1-(7-methyl-5-(trifluoromethoxy)-1H-indol-3-yl)ethanone], for which the SI in the data set on DENV-2 strain 16681 is on record as more than 32000; in the data set with DENV-1 strain TC974 #666, more than 12400; in the data set with DENV-3 strain H87, more than 1650; in the data set with DENV-4 strain H241, more than 84; in the data set with DENV-2 16681 strain it was more than 45000.
Consider `COc1cc(NC(C(=O)c2c[nH]c3cc(OC)c(C(F)(F)F)cc23)c2ccc(F)cc2OC)cc(OCCO)c1` (single isomer, unassigned) [Compound 2A, 2-(4-fluoro-2-methoxyphenyl)-2-((3-(2-hydroxyethoxy)-5-methoxyphenyl)amino)-1-(6-methoxy-5-(trifluoromethyl)-1H-indol-3-yl)ethanone], for which the SI with DENV-2 strain 16681 is recorded as more than 10100; with DENV-1 strain TC974 #666, more than 2130; with DENV-3 strain H87 it was more than 158; in the data set on DENV-4 strain H241 it was more than 34; with DENV-2 16681 strain it was 8240.
For `COc1cc(NC(C(=O)c2c[nH]c3cc(F)c(C(F)(F)F)cc23)c2ccc(Cl)cc2OC)cc(OCCO)c1` (single isomer, unassigned) [Compound 11A, 2-(4-chloro-2-methoxyphenyl)-1-(6-fluoro-5-(trifluoromethyl)-1H-indol-3-yl)-2-((3-(2-hydroxyethoxy)-5-methoxyphenyl)amino)ethanone], in that order: more than 13400, more than 7140, more than 741, 50 and 7820.
In the case of `COc1cc(NC(C(=O)c2c[nH]c3c(C)cc(OC(F)(F)F)cc23)c2ccc(F)cc2OC)cc(OCCO)c1` (single isomer, unassigned) [Compound 8A, 2-(4-fluoro-2-methoxyphenyl)-2-((3-(2-hydroxyethoxy)-5-methoxyphenyl)amino)-1-(7-methyl-5-(trifluoromethoxy)-1H-indol-3-yl)ethanone], the SI was more than 10700 with DENV-2 strain 16681; 3010 in the data set with DENV-1 strain TC974 #666; 530 with DENV-3 strain H87; 58 in the data set with DENV-4 strain H241; 8380 with DENV-2 16681 strain.

The record behind these values is patent US10646469B2, “Substituted indole derivatives as dengue viral replication inhibitors” (Janssen Pharmaceuticals, Inc., priority 2016, dated 2020).
